Pooled drug test results. Numbers come from NIAID ChemDB, via PubChem.

Common to all: enzyme or target tests; protein: CCR5; read-out: IC50

Neighbouring rows are from separate reports.

SMILES | changes | read by | result
Cc1ccc(C(CCN2CCC(c3ccccc3)CC2)CN(C)S(=O)(=O)c2ccccc2)cc1C |  | radioligand binding / binding | 0.08 µM
CCN(C(=O)OCc1ccccc1)C1CCN(CCC(CN(C)S(=O)(=O)c2ccccc2)c2ccccc2)CC1 |  | radioligand binding / binding | 0.002 µM
CCCN(C(=O)N[C@@H](C)c1ccccc1)C1CCN(CCC(CN(C)S(=O)(=O)c2ccccc2)c2ccccc2)CC1 |  | radioligand binding / binding | >0.1 µM
CC(CN1CCC(c2ccccc2)CC1)C(CN(C)S(=O)(=O)c1ccccc1)c1ccccc1 |  | radioligand binding / binding | >10 µM
CN(C[C@@H](CCN1CCC2(CC1)CS(=O)(=O)c1ccccc12)c1ccc(Cl)cc1)S(=O)(=O)c1ccccc1 |  | radioligand binding / binding | 0.27 µM
O=C(c1ccccc1Cl)N1C[C@H](CN2CCC(O)(CCCc3ccc(-c4nn[nH]n4)cc3)CC2)[C@@H](c2ccccc2)C1 | CCR5-D276A | radiometric | 0.005 µM
CCN(C)C(=O)C1CCN(CCC(CN(C)S(=O)(=O)c2ccccc2)c2ccccc2)CC1 |  | radioligand binding / binding | >10 µM
CN(C[C@@H](CCN1CCC(c2ccccc2)CC1)c1cccc(Cl)c1)S(=O)(=O)c1ccccc1 |  | radioligand binding / binding | 0.038 µM
CN(CC(CCN1CCC(c2ccccc2)CC1)c1cccc(-c2ccccc2)c1)S(=O)(=O)c1ccccc1 |  | radioligand binding / binding | <10 µM
CN(CC(CCCN1CCC2(CC1)CS(=O)c1ccccc12)c1cccc(Cl)c1)S(=O)(=O)c1ccccc1 |  | radioligand binding / binding | 1.1 µM
CCCN(C(=O)N(C)Cc1ccccc1)C1CCN(CCC(CN(C)S(=O)(=O)c2ccccc2)c2ccccc2)CC1 |  | radioligand binding / binding | >0.02 µM
CN(CC(C)(CCN1CCC(N(CCO)C(=O)OCc2ccc([N+](=O)[O-])cc2)CC1)c1ccsc1)S(=O)(=O)c1ccccc1 | CCR5-E283A | radiometric | >10 µM
CN(C[C@@H](CCN1CCC(O)(c2ccccc2)CC1)c1cccc(Cl)c1)S(=O)(=O)c1ccccc1 |  | radioligand binding / binding | 0.1 µM
CN(CC(CCCN1CCC2(CC1)CS(=O)(=O)c1ccccc12)c1cccc(Cl)c1)S(=O)(=O)c1ccccc1 |  | radioligand binding / binding | 0.52 µM
O=C(c1ccccc1)N1C[C@H](CN2CCC(c3ccccc3)CC2)[C@@H](c2ccccc2)C1 | CCR5-Y108A | radiometric | 0.165 µM
CN(C[C@@H](CCN1CCC2c3ccccc3NC2C1)c1cccc(Cl)c1)S(=O)(=O)c1ccccc1 |  | radioligand binding / binding | 0.25 µM
CCCC(CCN1CCC(N(CC)C(=O)OCc2ccccc2)CC1)(CN(C)S(=O)(=O)c1ccccc1)c1ccccc1 |  | radioligand binding / binding | 0.036 µM
CN(C[C@@H](CCN1CCC(c2ccccc2)CC1)c1ccc(F)cc1)S(=O)(=O)c1ccccc1 |  | radioligand binding / binding | <10 µM
CC(C)CN(C(=O)O)C1CCN(CCC(CN(C)S(=O)(=O)c2ccccc2)c2ccccc2)CC1 |  | radioligand binding / binding | 0.1 µM
COc1ccc(C(CCN2CCC(c3ccccc3)CC2)CN(C)S(=O)(=O)c2ccccc2)cc1 |  | radioligand binding / binding | <10 µM
CCCN(C(=O)c1ccccc1)C1CCN(CCC(CN(C)S(=O)(=O)c2ccccc2)c2ccccc2)CC1 |  | radioligand binding / binding | 0.1 µM

A second listing of 3 rows from above:

| SMILES | changes | read by | result |
|---|---|---|---|
| CCCN(C(=O)N[C@@H](C)c1ccccc1)C1CCN(CCC(CN(C)S(=O)(=O)c2ccccc2)c2ccccc2)CC1 |  | radioligand binding / binding | >0.1 µM |
| CN(C[C@@H](CCN1CCC(O)(c2ccccc2)CC1)c1cccc(Cl)c1)S(=O)(=O)c1ccccc1 |  | radioligand binding / binding | 0.1 µM |
| Cc1ccc(C(CCN2CCC(c3ccccc3)CC2)CN(C)S(=O)(=O)c2ccccc2)cc1C |  | radioligand binding / binding | 0.08 µM |

An empty or dashed field is not shown. ICn: concentration for n% inhibition.